Results of unrelated studies side by side (data: NIAID ChemDB).

All rows: growth or infection tests; species: Influenza B virus; cells: MDCK; measure: EC50

Conditions beyond the fields shown may differ between rows. ECn: concentration that inhibits the pathogen or its effect by n%.

{"compound": "NC(=O)c1ncn([C@@H]2O[C@H](CO)[C@@H](O)[C@H]2O)n1", "strain or isolate": "B/Singapore/222/79", "value": "30 µM"}
{"compound": "C#Cc1c(C(N)=O)ncn1[C@@H]1O[C@H](CO)[C@@H](O)[C@H]1O", "strain or isolate": "B/Singapore", "read by": "plaque count", "value": "0.85 µg/mL"}
{"compound": "CN(C)CCN1CCCCC1C12CC3CC(CC(C3)C1)C2", "read by": "cytopathic effect", "value": ">616 µM"}
{"compound": "Nc1ccc(S(=O)(=O)O)c2cc(S(=O)(=O)O)cc(O)c12", "strain or isolate": "Singapore/222/79", "read by": "cytopathic effect", "value": ">200 µM"}
{"compound": "CC(=O)N[C@H]1[C@H]([C@H](O)[C@H](O)CO)OC(C(=O)O)=C[C@@H]1N", "strain or isolate": "B/Victoria/102/85", "read by": "plaque count", "value": "0.065 µM"}
{"compound": "NC(=O)c1ncn([C@@H]2O[C@H](CO)[C@@H](O)[C@H]2O)n1", "strain or isolate": "B/Singapore/222/79", "read by": "plaque count", "value": "3.6 µg/mL"}
{"compound": "C1CCN(CCN2CCCCCC2C23CC4CC(CC(C4)C2)C3)CC1", "read by": "cytopathic effect", "value": ">840 µM"}
{"compound": "Nc1ncnc2c1ncn2[C@@H]1C[C@@H](O)[C@H](CO)O1", "value": ">100 µM"}
{"compound": "Cc1cn([C@@H]2C[C@@H](O)[C@H](CO)O2)c(=O)[nH]c1=O", "value": ">100 µM"}
{"compound": "CC(C)CCCC(C)C1CCC2C3CC=C4CC(OC(=O)Nc5ccc(S(=O)(=O)O)c6cccc(S(=O)(=O)O)c56)CCC4(C)C3CCC12C", "strain or isolate": "Singapore/222/79", "read by": "cytopathic effect", "value": ">100 µM"}
{"compound": "NC12CC3CC(CC(C3)C1)C2", "strain or isolate": "Nagasaki/1/87", "read by": "plaque count", "value": ">50 µg/mL"}
{"compound": "Nc1ccn([C@@H]2C[C@@H](O)[C@H](CO)O2)c(=O)n1", "value": ">100 µM"}
{"compound": "CC(C)CCCC(C)C1CCC2C3CC=C4CC(OC(=O)Nc5ccc(S(=O)(=O)O)c6ccccc56)CCC4(C)C3CCC12C", "strain or isolate": "Singapore/222/79", "read by": "cytopathic effect", "value": ">100 µM"}
{"compound": "Nc1ccn([C@@H]2C[C@@H](O)[C@H](CO)O2)c(=O)n1", "value": ">100 µM"}
{"compound": "C1CCN(CC2CC2)C(C23CC4CC(CC(C4)C2)C3)C1", "read by": "cytopathic effect", "value": ">162 µM"}
{"compound": "C#Cc1c(C(N)=O)ncn1[C@@H]1O[C@H](CO)[C@@H](O)[C@H]1O", "strain or isolate": "B/Singapore/222/79", "read by": "plaque count", "value": "0.44 µg/mL"}